Assay results reported in patent US20040132121A1, “Method of identifying antibacterial compounds” (priority 2000, published 2004).
Several values for one entry are separate records, joined by “and”; a condition that tells them apart may be missing. Identical values can stand only once.

T1: Escherichia coli β subunit of DNA Polymerase III (β protein) (Escherichia coli), P0A988
T1 chain: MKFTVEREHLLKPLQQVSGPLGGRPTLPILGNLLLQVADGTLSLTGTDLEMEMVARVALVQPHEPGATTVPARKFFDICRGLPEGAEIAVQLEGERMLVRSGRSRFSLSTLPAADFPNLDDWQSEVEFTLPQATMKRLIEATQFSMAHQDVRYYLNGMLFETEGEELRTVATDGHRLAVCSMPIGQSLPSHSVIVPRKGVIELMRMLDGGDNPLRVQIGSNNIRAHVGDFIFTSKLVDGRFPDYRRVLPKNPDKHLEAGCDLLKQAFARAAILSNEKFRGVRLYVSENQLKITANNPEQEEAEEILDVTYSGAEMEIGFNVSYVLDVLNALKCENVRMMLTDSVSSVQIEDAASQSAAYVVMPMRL


Target: T1, Escherichia coli β subunit of DNA …
Assay: not given

| Binder | IC50 |
| --- | --- |
| IGQLSLFGV (modifications not checked) [pep13 …] | 4.9 µM and 5.9 µM |
| IGQLVLGLGV (modifications not checked) [peptide 110b … (DinB1 motif)] | 9.3 µM and 6.8 µM |
| IGQLSLPLGV (modifications not checked) [peptide 110c … (DnaA2 motif)] | 3.4 µM and 3.3 µM |
| IGQLNLFGV (modifications not checked) [peptide 110d … (UmuC2 motif)] | 7.8 µM and 11.5 µM |
| IGQMSLLGV (modifications not checked) [peptide 110e … (MutS1 motif)] | 9.7 µM and 7 µM |
| IGQLGLFGV (modifications not checked) [peptide 110f … (PolB2 motif)] | 17.5 µM and 9.5 µM |

Target: T1, Escherichia coli β subunit of DNA …
Assay: not given
Remark: another data set of the same source

| Binder | Kd | IC50 |
| --- | --- | --- |
| IGQLDMFGV (modifications not checked) [biotinylated peptide 1] | 0.558 µM |  |
| IGQLSLFGV (modifications not checked) [biotinylated peptide 13] | 0.8 µM |  |
| IGQLDLFGV (modifications not checked) [biotinylated peptide 14] | 0.778 µM |  |
| IGQLDMFGV (modifications not checked) [pep1 …] |  | 0.92 µM and 1.01 µM |
| IGQLSLFGV (modifications not checked) [pep13 …] |  | 0.44 µM and 0.55 µM |
| IGQLDLFGV (modifications not checked) [pep14 …] |  | 0.4 µM and 0.5 µM |

Target: T1, Escherichia coli β subunit of DNA …
Assay: α:β assay: inhibition of β binding to plate-coated α

| Binder | IC50 |
| --- | --- |
| IGQAMSLFGV (modifications not checked) [peptide 110a … (delta motif)] | 27 µM |
| IGQASMFGV (modifications not checked) [pep2 …] | 860 µg/mL |
